Drawing on ChEMBL document CHEMBL3407490, “Synthesis of functionalized 3-, 5-, 6- and 8-aminoquinolines via intermediate (3-pyrrolin-1-yl)- and (2-oxopyrrolidin-1-yl)quinolines and evaluation of their antiplasmodial and antifungal activity” (Eur J Med Chem, 2015), this text covers IC50 for 2 compounds.

The term IC50 denotes the concentration that inhibits the measured activity by half.

The test system of this test is Plasmodium falciparum. Put plainly: Antiplasmodial activity against chloroquine-sensitive asexual erythrocytic stage of Plasmodium falciparum NF54 assessed as […] lactate dehydrogenase assay.

As for `Brc1ccc2ncccc2c1N1C[C@@H](Br)[C@H](Br)C1`, the half-inhibitory concentration (IC50) was greater than 20 µM.

In the case of `Brc1c(N2C[C@@H](Br)[C@H](Br)C2)cnc2ccccc12`, the IC50 is greater than 20 µM.
